From PubChem BioAssay AID1621 (Southern Research Specialized Biocontainment Screening …, 2009)
This is one part of the list. Measured potencies and affinities stand elsewhere. Calls of active or inactive are those of the source. The rule behind the calls is not given here.

Assay: West Nile virus antiviral activity, cell-based, CPE readout (AID 1621)
Settings: West Nile virus-infected cells, at 10 µM, hits give high values

Structure (SMILES) | CPE inhibition
CN1CCC(Nc2cccc(F)c2)CC1 | inactive: -0.09%
CCCOc1ccc(C(=O)NCC2(N(C)C)CCCCC2)cc1OC | inactive: 0%
CN(C)c1cccc(C(=O)NCC2(N3CCCCC3)CCCCC2)c1 | inactive: -0.29%
COc1ccc(CN(CCCl)CCCl)cc1Cl | inactive: -0.12%
CC(C)c1ccc(NC2CCN(C(=O)OC(C)(C)C)CC2)cc1 | inactive: -0.48%
COc1cc(OC)c(C(=O)NCC2(N(C)C)CCCCC2)cc1OC | inactive: 0.14%
O=C(NCC1(N2CCCCC2)CCCCC1)c1cccc(C(F)(F)F)c1 | inactive: -0.35%
COc1ccc(NC2CCN(C(=O)OC(C)(C)C)CC2)cc1 | inactive: -0.25%
CN1CCN(CCOC(=O)C(O)(c2ccccc2)c2ccccc2)CC1 | inactive: -0.17%
O=C(NCC1(N2CCOCC2)CCCCC1)c1cc(=O)[nH]c2ccccc12 | inactive: 0.27%
COc1cc(C(=O)NCC2(N3CCCCC3)CCCCC2)ccc1OC(F)F | inactive: -0.79%
O=C(NCC1(N2CCCCC2)CCCCC1)c1ccc(OC(F)F)cc1 | inactive: -0.35%
O=C(NCC1(N2CCCCC2)CCCCC1)c1cccc([N+](=O)[O-])c1 | inactive: -0.78%
N#CC1(Nc2ccccc2)CCN(CCc2ccccc2)CC1 | inactive: 0.15%
CCN1CCC(Nc2ccc(Cl)cc2)CC1 | inactive: -0.22%
Cc1ccc(OCC(C)C)c(CN(CCCl)CCCl)c1 | inactive: 0.07%
COc1cc(C(=O)NCC2(N(C)C)CCCCC2)ccc1OC(F)F | inactive: 0.66%
CCOC(=O)N1CCC(Nc2cccc(C)c2)CC1 | inactive: 0.65%
CCOc1ccc(C)cc1CN(CCCl)CCCl | inactive: 0.13%
CCOC(=O)N1CCC(Nc2ccc(F)cc2)CC1 | inactive: 0.91%
COc1ccc(NC2CCN(CCc3ccccc3)CC2)c(OC)c1 | inactive: -0.54%
O=C(NCC1(N2CCCCC2)CCCCC1)c1ccc(F)cc1 | inactive: -0.88%
O=C(NCC1(N2CCOCC2)CCCCC1)c1cc2ccccc2o1 | inactive: -0.25%
Cc1cc(C)cc(N(C(=O)c2ccccc2)C2CCN(C(=O)OC(C)(C)C)CC2)c1 | inactive: -1.73%
CCOC(=O)N1CCC(Nc2ccc(OC)cc2)CC1 | inactive: -0.19%
O=C(OC1CN2CCC1CC2)C1c2ccccc2Oc2ccccc21 (centres undefined) | inactive: -0.39%
N#CC1(Nc2ccccc2)CCN(Cc2ccccc2)CC1 | inactive: 1.33%

Structure (SMILES) | CPE inhibition
O=C(NCC1(N2CCCCC2)CCCCC1)c1ccc(=O)[nH]c1 | inactive: -0.21%
CC(C)(C)OC(=O)N1CCC(N(C(=O)c2ccccc2)c2ccc(F)cc2)CC1 | inactive: -1.34%
COc1ccc(C(=O)NCC2(N3CCCCC3)CCCCC2)c(OC)c1OC | inactive: -0.45%
COc1ccc(C(=O)NCC2(N3CCCCC3)CCCCC2)cc1 | inactive: -0.32%
CSc1ccccc1C(=O)NCC1(N2CCCCC2)CCCCC1 | inactive: -0.33%
CCC(CO)(C(=O)OC1CN2CCC1CC2)c1ccccc1 (centres undefined) | inactive: 0.28%
COc1cccc(C(=O)N(c2cc(C)cc(C)c2)C2CCN(C(=O)OC(C)(C)C)CC2)c1 | inactive: 0.24%
COc1cc(OC)cc(C(=O)NCC2(N3CCOCC3)CCCCC2)c1 | inactive: -1.03%
CCCOc1ccc(C)cc1CN(CCCl)CCCl | inactive: 0.13%
CN1CCC(Nc2ccc(Cl)cc2)CC1 | inactive: 0.58%
CN1CCC(Nc2ccc(F)c(Cl)c2)CC1 | inactive: -0.15%
CCOc1ncccc1C(=O)NCC1(N2CCOCC2)CCCCC1 | inactive: 0.24%
CCCOc1ccc(C(=O)NCC2(N(C)C)CCCCC2)cc1 | inactive: -0.34%
O=C(O)C1(Nc2ccccc2)CCN(Cc2ccccc2)CC1 | inactive: 0.14%
CC(C)(C)OC(=O)N1CCC(Nc2ccccc2)CC1 | inactive: 0.35%
CCN1CCC(Nc2cccc(F)c2)CC1 | inactive: 0.37%
CN(C)c1ccc(C(=O)NCC2(N3CCCCC3)CCCCC2)cc1 | inactive: -0.59%
COc1cc(OC)cc(C(=O)NCC2(N3CCCCC3)CCCCC2)c1 | inactive: 0.04%
Fc1ccccc1NC1CCN(Cc2ccccc2)CC1 | inactive: 0.2%
CCCN1CCC(Nc2cc(OC)cc(OC)c2)CC1 | inactive: 0.36%
c1ccc(CN2CCC(Nc3ccccc3)CC2)cc1 | inactive: 0.43%
CN(C)C1(CNC(=O)c2cccc(C#N)c2)CCCCC1 | inactive: 0.07%
CC(C)(C)OC(=O)N1CCC(N(C(=O)c2ccccc2)c2ccc(Cl)cc2)CC1 | inactive: -1.65%
N#Cc1ccc(C(=O)NCC2(N3CCCCC3)CCCCC2)cc1 | inactive: 1.09%
CCOC(=O)N1CCC(Nc2ccc(C)cc2)CC1 | inactive: -0.07%
O=C(OC1CN2CCC1CC2)C1c2ccccc2C=Cc2ccccc21 (centres undefined) | inactive: 1.74%
COc1ccc(C(=O)NCC2(N3CCOCC3)CCCCC2)cc1OC | inactive: 1%
